Laboratory results: PubChem BioAssay AID504761 (Drosophila RNAi Screening Center, 2011)
The deposit covers about 22,000 reagents; shown is an unselected part of those with a known target gene and a result. In the full data, 116 (0.52%) got an active call. 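Calls depend on retest data that are not deposited; infection was ranked per plate without normalising between plates; the unit of the infection score is not given.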 Raw values vary from plate to plate and are shown uncorrected. A number with no mark means an inactive call. Names joined by + are all predicted targets of the reagent. Reagent sequences are not shown. The record does not give: the amount of reagent, the time to read-out.

Assay: 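Genome-wide fly cell screen for genes dengue virus requires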 (primary screen)
Cells: D.Mel-2 cells from Drosophila
Reagents: long dsRNA against Drosophila genes
Challenge: infection with dengue virus type 2; dose and infection time not stated
Detection: 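Per well on two replicate plates, imaging gave the percent of cells positive for viral envelope protein, ranked by infection, and a nuclear count of cells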
Direction: infection score: higher = more virus-infected cells; cell count: higher = more cells in the well
Rule for the call: 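Low infection ranks in the two replicates (chance level up to 0.065) followed by a retest with a 1.5-fold or larger significant decrease, p below 0.05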
Calls: active = confirmed: knock-down lowers infection; inactive = not picked or not confirmed

no.	Target gene	dsRNA	infection score, replicate 1	infection score, replicate 2	cell count, replicate 1	cell count, replicate 2
1	CG13937	DRSC08406	9.07	3.52	6464	6446
2	CG9921	DRSC20220	12.5	7.6	6683	6728
3	CG7945 + yellow-k	DRSC10851	8.84	10.2	5692	3779
4	CG42733	DRSC25375	8.44	9.99	6525	6457
5	Arp10 (Actin-related protein 10)	DRSC19448	24.3	14.2	5953	2478
6	Arp10 (Actin-related protein 10)	DRSC28715	10.1	5.16	5983	6050
7	TwdlV (TweedleV)	DRSC24972	3.35	13.4	6274	6739
8	CG15721	DRSC19688	9.37	11.3	5793	5717
9	CG31810 + CG31809	DRSC25411	3.28	5.27	6900	6512
10	CG15221	DRSC19659	0.58	5.35	6749	6957
11	CG7778	DRSC03067	3.88	1.87	6233	6429
12	CG7778	DRSC27313	15.9	12.8	5812	3908
13	CG14270	DRSC17913	4.01	0.88	6334	6162
14	CG13170	DRSC06298	17.7	15.2	2838	3350
15	CG13170	DRSC25159	1.84	9.08	6406	6136
16	CG42758	DRSC10021	0.72	0.76	5866	6598
17	CG4839	DRSC02783	12.7	6.25	6373	6176
18	CG4839	DRSC02784	1.22	3.11	6863	6341
19	Khc-73 (Kinesin heavy chain 73)	DRSC07449	16.8	14.9	5311	6402
20	Khc-73 (Kinesin heavy chain 73)	DRSC26819	12.3	17.6	6600	6678
21	CG14756	DRSC06491	9.07	8.21	5633	6477
22	CG14756	DRSC24808	10.4	7.27	4891	5697
23	CG8405	DRSC05599	0.17	0.13	6573	6371
24	CG8405	DRSC07166	29.5	11.4	5203	7301
25	spo (spook)	DRSC11127	0.3	2.62	5759	5453

Quoted from above for reference:
no.	Target gene	dsRNA	infection score, replicate 1	infection score, replicate 2	cell count, replicate 1	cell count, replicate 2
6	Arp10 (Actin-related protein 10)	DRSC28715	10.1	5.16	5983	6050
7	TwdlV (TweedleV)	DRSC24972	3.35	13.4	6274	6739
8	CG15721	DRSC19688	9.37	11.3	5793	5717
9	CG31810 + CG31809	DRSC25411	3.28	5.27	6900	6512
10	CG15221	DRSC19659	0.58	5.35	6749	6957

The results go on:
no.	Target gene	dsRNA	infection score, replicate 1	infection score, replicate 2	cell count, replicate 1	cell count, replicate 2
26	aus (argus)	DRSC13471	4.7	6.76	5857	6181
27	aus (argus)	DRSC13473	0.52	0.03	6518	6517
28	aus (argus)	DRSC15157	1.51	4.21	6108	6479
29	aus (argus)	DRSC26783	7.48	1.81	6601	6953
30	Pstk + Tim9b	DRSC19504	5.03	8.66	6617	6674
31	Pstk + Tim9b	DRSC20292	2.29	1.82	6166	5813
32	Pstk + Tim9b	DRSC28671	1.74		518	411
33	CG32719	DRSC17525	1.39	5.51	6096	6499
34	CG32719	DRSC26765	2.93	10.8	6662	6139
35	CG33330 (retired record)	DRSC13053	7.82	10.6	4743	3922
36	CG33330 (retired record)	DRSC15495	6.4	6.89	6454	6952
37	CG33330 (retired record)	DRSC27452	10.6	5.98	6632	6333
38	Mec2	DRSC20054	2.23	5.43	6606	6701
39	Mec2	DRSC26162	8.38	7.68	5361	5856
40	CG5783	DRSC02894	14.5	4.15	5597	6981
41	CG2162	DRSC08557	11.7	7.04	6713	6773
42	CG2162	DRSC25030	6.74	5.32	5739	5623
43	Gcn5 (Gcn5 acetyltransferase)	DRSC11248	12.2	9.2	5937	6000
44	Gcn5 (Gcn5 acetyltransferase)	DRSC26932	2.19	17.2	5846	5518
45	CG13287	DRSC09961	6.13	2.37	6365	6337
46	CG13287	DRSC26934	8.71	5.69	6107	5224
47	alpha-Est8 (alpha-Esterase-8)	DRSC12620	4.64	7.08	6655	6479
48	Fim (Fimbrin)	DRSC20243	3.13	1.8	6681	6571
49	nompA (no mechanoreceptor potential A)	DRSC06329			365	429
50	Takl1 (Tak1-like 1)	DRSC13443	1.46	1.58	5803	5769
51	Takl1 (Tak1-like 1)	DRSC28251	6.22	7.98	6299	1304
52	CG8668	DRSC03101	7.12	4.85	6333	6365
53	CG8668	DRSC24942	5.25	3.06	6186	6141
54	Vti1a (Vesicle transport through interaction with t-SNAREs 1a)	DRSC08563	17.1	5.12	5069	1505
55	Cyt-c-p (Cytochrome c proximal)	DRSC03310	13	1.65	6054	6175
56	CG14402	DRSC02386	4.03	2.58	1538	7223
57	beat-Ia (beaten path Ia)	DRSC03489	10.2	0.97	6013	6824
58	beat-Ia (beaten path Ia)	DRSC25576	0.93	2.45	6440	6407
